Pooled drug test results. Numbers come from NIAID ChemDB, via PubChem.

Common to all: whole-cell or culture tests; agent: Rhinovirus

Conditions beyond the fields shown may differ between rows.

smiles	strain	cell line	method	read-out	tested at	result
O=S(=O)(O)c1ccc2cc(O)c(S(=O)(=O)O)cc2c1	-	Human amnion AV3 cells	cytopathic effect	inhibition	5 µg/mL	0%
CCOC(=O)c1ccc(OCCC2CCN(c3ccc(C)nn3)CC2)cc1	FO2-3607 (sialoprotein receptor group 87)	KB	neutral red	EC50	-	0.054 µM
CN(C)c1nc(C(F)(F)F)nc2c1ncn2Cc1ccc(S(C)(=O)=O)cc1	Serotype 14	M-HELA	plaque count	inhibition	8 µM	16%
CCOC(=O)c1ccc(OCCCOc2ccc(-c3snc(SC)c3C#N)cc2)cc1	Serotype 9 (group B)	HELA-OHIO	cytopathic effect	EC50	-	>2 µM
Cc1cc(-c2ccc(N=Nc3ccc4c(S(=O)(=O)O)cc(S(=O)(=O)O)c(N)c4c3O)c(C)c2)ccc1N=Nc1ccc2c(S(=O)(=O)O)cc(S(=O)(=O)O)c(N)c2c1O	-	Human embryonic lung cells	cytopathic effect	inhibition	10 µg/mL	0%
CSc1nsc(-c2ccc(OCCCOc3ccc(C#N)cc3)cc2)c1C#N	Serotype 9 (group B)	HELA-OHIO	cytopathic effect	EC50	-	>2 µM
O=S(=O)([O-])c1cc(O)c2ccccc2c1	-	Human amnion AV3 cells	cytopathic effect	inhibition	5 µg/mL	0%
CSc1nsc(-c2ccc(OCCCc3ccccc3)cc2)c1C#N	Serotype 63 (group B)	HELA-OHIO	cytopathic effect	EC50	-	>20 µM
CN(C)c1ccc(Cn2cnc3c(Nc4cccc(F)c4)nc(C(F)(F)F)nc32)cc1	Serotype 2	M-HELA	plaque count	EC50	-	130 µM
Cc1cc(CCCCCOc2cc(Cl)c(-c3nnco3)c(Cl)c2)on1	Serotype 15	-	-	MIC80	-	1.92 µg/mL
O=S(=O)([O-])c1ccc(NS(=O)(=O)c2ccccc2)c2c(S(=O)(=O)[O-])cccc12	-	Human embryonic lung cells	cytopathic effect	inhibition	50 µg/mL	68%
Cc1cc(CCCCCOc2cc(Cl)c(-c3nnc(C)o3)c(Cl)c2)on1	Serotype 21	-	-	MIC80	-	0.0092 µg/mL
O=S(=O)(O)c1cc(O)c2c(O)cc(S(=O)(=O)O)cc2c1	-	Human amnion AV3 cells	cytopathic effect	inhibition	50 µg/mL	50%
Cc1ccc(Cn2cnc3c(N(C)C)nc(C(F)(F)F)nc32)c(C)c1	Serotype 19	M-HELA	plaque count	inhibition	8 µM	36%
Fc1cccc(Cn2cnc3c(Nc4cccc(F)c4)nc(C(F)(F)F)nc32)c1	Serotype 1B	M-HELA	plaque count	EC50	-	0.43 µM
Nc1ccc2cc(S(=O)(=O)O)cc(S(=O)(=O)O)c2c1	-	Human amnion AV3 cells	cytopathic effect	inhibition	50 µg/mL	10%
CCOC(=O)c1ccc(OCCCCOc2ccc(-c3snc(SC)c3C#N)cc2)cc1	Serotype 2 (group B)	HELA-OHIO	cytopathic effect	EC50	-	>2 µM
CN(C)c1nc(C(F)(F)F)nc2c1ncn2Cc1ccc(F)cc1	Serotype 19	M-HELA	plaque count	inhibition	8 µM	22%
CSc1ncnc2c1ncn2[C@@H]1OC2COP(=O)(O)OC2[C@H]1O	TYPE 2	-	-	MIC	-	3.2 µg/mL
CCOC(=O)c1ccc(OCCOc2ccc(-c3snc(SC)c3C#N)cc2)cc1	Serotype 15 (group B)	HELA-OHIO	cytopathic effect	EC50	-	>2 µM
Cc1ccccc1Cn1cnc2c(N(C)C)nc(C(F)(F)F)nc21	Serotype 13	M-HELA	plaque count	inhibition	8 µM	33%
CSc1nsc(-c2ccc(OCCCCOc3ccccc3)cc2)c1C#N	Serotype 15 (group B)	HELA-OHIO	cytopathic effect	EC50	-	>20 µM
CN(C)c1nc(C(F)(F)F)nc2c1ncn2Cc1ccc(Cl)cc1Cl	Serotype 15	M-HELA	plaque count	inhibition	8 µM	10%
CSc1nsc(-c2ccc(OCCCOc3ccccc3)cc2)c1C#N	Serotype 72 (group A)	HELA-OHIO	cytopathic effect	EC50	-	>20 µM
O=P1(O)OCC2O[C@@H](n3cnc4c(SCc5ccccc5)ncnc43)[C@H](O)C2O1	TYPE 8	-	-	MIC	-	100 µg/mL
CSc1nsc(-c2ccc(OCCOc3ccc([N+](=O)[O-])cc3)cc2)c1C#N	Serotype 42 (group A)	HELA-OHIO	cytopathic effect	EC50	-	>2 µM
CCOC(=O)/C=C/[C@H](C[C@@H]1CCNC1=O)NC(=O)[C@@H](CC(=O)[C@@H](NC(=O)c1cc(C)on1)C(C)C)Cc1ccc(F)cc1	Isolate 5	OHIO HELA-I	cytopathic effect / visual reading	EC50	-	0.03 µg/mL

An empty or dashed field is not shown. MIC50, MIC90 and the like: level of inhibition, or share of isolates inhibited. ECn is the concentration giving n% inhibition of infection, replication or growth. Inhibition is in % at the dose shown (toxicity tests: loss of growth or viability).